Reference: paper PMC8266642
The exact form of at least one protein or probe is not confirmed. Weaker means in comparison with the reference protein, sequence or condition of that experiment. At least one verdict was read from the data and is not stated in words by the source. Tags and fusion partners may be left off the protein sequences shown.

Target: T1, StrepHP1021 (HP1021) (Helicobacter pylori 26695) (UniProt O25665)
T1 sequence (looked up, limits assumed): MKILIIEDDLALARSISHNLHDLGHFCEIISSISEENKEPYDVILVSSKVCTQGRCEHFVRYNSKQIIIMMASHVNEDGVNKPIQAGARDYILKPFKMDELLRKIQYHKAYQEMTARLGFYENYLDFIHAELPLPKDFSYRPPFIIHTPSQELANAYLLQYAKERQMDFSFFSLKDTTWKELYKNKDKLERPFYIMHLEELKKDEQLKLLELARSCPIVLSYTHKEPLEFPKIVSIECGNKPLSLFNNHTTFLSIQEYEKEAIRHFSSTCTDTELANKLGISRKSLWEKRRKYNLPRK
Experiment: EMSA
Conditions: EMSA: 50 mM Tris-HCl pH 8.0, 100 mM NaCl, 0.2% Triton X-100, 5 nM DNA, 37 C 20 min, 4% PAGE in 0.5x TBE or TB at 20-25 C, recombinant protein, protein details: N-terminal Strep-tag II (WSHPQFEK), label: 5' FAM (P17), probe letters rebuilt from the primers and the genome

Sequence | binding result | binding result (Zn2+) | binding result (air-oxidized (vs TCEP-reduced))
GGAGTAAGAATAGCTTCGAATGAATAGCGCTGTCAAACTCCCCAGCGCCAGAGTGTTAGAAGTTTTTTGCATACCTTCTCCTTTTTTATTGAGTTGATATAATAATAATGATATTACAATTATTTTAAGATAATAATCTGTCTAAATAAAGAAAAAGAGGCATGAAATGAGTAAAAAATGCAAAGCCCCTTAAAAAGAGCTTAACGAAAGATAAATACAGAAACAGAAATGATGCAGAGAATGATAATGCCTGAATTGAGTGCTTTGAAGTCTTTTTGAACCAATTTGATGATACTATAAGACAAAAAGCCAAAGGCTAAGCCATCGGCAATGGAGAAGGTTAAGGGCATCATCACCACGGTTAAA (double strand) [pgluP] | binds | binds more weakly | binds more weakly
TGCAATAAAACAGGACCTCTAGGGCCGGCCGTAATCACATTGTTGTCATCCCAAACGGGAGCGCCAAAAGCAGTGGTTTGTTTCACATCTTTATTAACCATCTTTTTTCCTTTTATGATCTTAAATCTTCGTAATATGACACTAAGCCGATTACTTGTGGTGATTATCACATAATTTGTTATACAAAGACTAACAAGATTCAATTTCCTTAAAAAATCCTTTTTTTAAGAATGAAAAACCCCCTTAAGTATTTCTATTCGTAACAATTAATGAAAATAAGAAAGATTAAAAACAAAATTTTATTTTTAATCTGGTTTTAATAATAATTATTCGAAGCTATTCTTACTCC (double strand) [pkatA] | binds | binds more weakly | binds more weakly
ATGATATTTATATGATATTTTTGGGTAATTTAAGATGAATATCGGTAGCGTTTTGAATAAATTTGTTACTACTTTTCACTTTATTACGCCAAATTTTCCCTTATTACAAACAACTTTGAAATAAATGATTTCCATTTAAAAATCAGCCTTATACTTCTAATAGGTTGCCTTGAGCAACACTTTAATACAAGGAGTCTAAATGAAAGACGCAAATTCGAAGCTATTCTTACTCC (double strand) [phyuA] | – | binds more weakly | binds more weakly
